Results of unrelated studies side by side (data: NIAID ChemDB).

All rows: tests in culture

An empty or dashed field is not shown.

smiles,agent,changes,dose,read by,cell line,setting,strain or isolate,endpoint,value
CCOC(=O)c1cnc(NCCCCNc2ccnc3cc(Cl)ccc23)nc1C,Cryptococcus neoformans,,,,,,C-3-1,MIC99,2 µg/mL
CCO[C@@H]1[C@@H](OCC)[C@H](Cc2ccccc2)O[C@@H]2CO[C@@H](c3ccc(Cl)cc3)O[C@@H]12,West Nile virus,,,cytopathic effect,HFF,,,EC50,>50 µg/mL
Nc1ncnc2c1ncn2[C@@H]1C=C[C@@H](O)[C@H]1O,Measles virus,,,cytopathic effect,CV-1,,X-1108,EC50,>100 µg/mL
CCOC(=O)c1c(C)nc(OCCCNc2ccnc3cc(Cl)ccc23)nc1-c1ccccc1,Cryptococcus neoformans,,,,,,C-3-1,MIC99,2 µg/mL
CO[C@@H]1[C@H](O)[C@@H](CO)O[C@H]1n1cnc2c(=O)[nH][nH]c(=O)c21,West Nile virus,,,,VERO E6,,,EC50,>70 µM
CCCCCCCCCCCC[N+](C)(C)COC(C)CCC,Staphylococcus aureus,,,,,,ATCC33592,MBC,14.3 µM
CCN=C(N)c1ccc(N2CCN(c3ccc(C(N)=NCC)cc3)CC2)cc1,Pneumocystis carinii,,,ATP,,,,EC50,0.542 µg/mL
Fc1cccc(Cn2cnc3c(Nc4cccc(F)c4)nc(C(F)(F)F)nc32)c1,Rhinovirus,,,plaque count,M-HELA,,Serotype 20,EC50,11 µM
CN(C)c1ncnc2c1ncn2Cc1ccccc1NC(=O)C(Cc1ccccc1)NC(=O)OCc1ccccc1,Coronavirus,,,plaque count,M-HELA,,,EC50,>50 µM
CCCCCCCC[N+](C)(C)COCCC(C)CCCC(C)C,Staphylococcus aureus,,,,,,ATCC 6538,MIC,13.7 µM
N#Cc1cc(NC(=O)c2ccccc2)c(=O)n2c1[nH]c1ccccc12,Respiratory syncytial virus,,,plaque count,HEP-2,,LONG,EC50,0.12 µg/mL
CCCCCCCCCCCC[N+](C)(C)COCC(C)CC,Staphylococcus aureus,,,,,,ATCC33592,MBC,8.57 µM
COc1nc(N)nc2c1ncn2OCCOCP(=O)(O)O,Maedi-visna virus,,,,,,K184,MIC,0.003 µM
CC(C)CS[C@H]1C[C@@H](n2cnc3c(N)ncnc32)[C@H](O)[C@@H]1O,Sindbis virus,,,cytopathic effect,HeLa,,,EC50,>80 µg/mL
CS[C@H]1C=C[C@@H](n2cnc3c(N)ncnc32)C1,Measles virus,,,neutral red,CV-1,,,EC50,>100 µg/mL
CC(C)N=C(N)c1ccc(-c2ccc(-c3nc4ccc(C(N)=NC(C)C)cc4[nH]3)o2)cc1,Bovine viral diarrhea virus,,5 µM,,MDBK,,,inhibition,43%
CCOC(=O)c1ccc(OCCC2CCN(c3ccc(C)nn3)CC2)cc1,Rhinovirus,,,neutral red,KB,,1505 (ICAM-1 receptor group 48),EC50,0.136 µM
N=C(N)c1ncn([C@@H]2O[C@H](CO)[C@@H](O)[C@H]2O)n1,Dengue virus,,,,,,,EC50,>100 µM
Nc1nc2c(ncn2COC2COP(=O)(O)OC2)c(=O)[nH]1,Mouse cytomegalovirus,,,plaque count,MRC-5,,SMITH,EC50,1.6 µM
CCCCCCCCCCCC[N+](C)(C)COCCCC,Staphylococcus aureus,,,,,,ATCC 6538,MIC,4.46 µM
Cn1nc(Cc2ccc(Cl)cc2)c2ccccc2c1=O,Cryptococcus neoformans,,,broth dilution,,,Clinical isolate (IM 031631),MFC,125 µg/mL
Cn1ncc(C#N)c1/N=c1\ssnc1Cl,Saccharomyces cerevisiae,,,,,,ATCC26785,MIC,25 µg/mL
O=C(NCCc1ccccc1)Nc1nc2ccccc2s1,HIV-2,,100 µg/mL,cytopathic effect / XTT,MT-4,,,inhibition,50%
NC(=Nc1ccccc1)c1ccc(N2CCN(c3ccc(C(N)=Nc4ccccc4)cc3)CC2)cc1,Pneumocystis carinii,,,ATP,,,,EC50,0.116 µg/mL
Nc1nc2c(ncn2CC(CO)CCO)c(=O)[nH]1,Simian varicella-zoster virus,,,plaque count,MA-104,,,EC50,83 µM
N#Cc1csc(NC(=O)NCCc2ccccc2)n1,HIV-2,,100 µg/mL,RT activity,MT-4,,,inhibition,96%
CCCCCCCCCCCC[N+](C)(C)COC(CCC)CCC,Staphylococcus aureus,,,,,,ATCC 6538,MIC,1.59 µM
O=c1[nH]c(=O)n([C@H]2C[C@H](O)[C@@H](CO)O2)cc1/C=C\Cl,Equine herpesvirus 1,,,cytopathic effect,PRK,,Kentucky (type 1),EC50,>200 µg/mL
CCCCCCCCCCCCN=C(N)c1ccc(N2CCN(c3ccc(C(N)=NCCCCCCCCCCCC)cc3)CC2)cc1,Pneumocystis carinii,,,ATP,,,,EC50,0.537 µg/mL
N#Cc1cnn(CCc2ccccc2)c1/N=c1\ssnc1Cl,Saccharomyces cerevisiae,,,,,,ATCC26785,MIC,25 µg/mL
CN(C)c1ncnc2c1ncn2Cc1ccc(NC(=O)C(N)Cc2ccccc2)cc1,Coronavirus,,,plaque count,M-HELA,,,EC50,>50 µM
Nc1nc(=O)n([C@H]2C[C@H](O)[C@@H](CO)O2)cc1/C=C\Cl,Bovine herpesvirus 1,,,cytopathic effect,PRK,,LA (TYPE 1),EC50,>200 µg/mL
O=C(NCCc1ccccc1)Nc1nncs1,HIV-2,,100 µg/mL,RT activity,MT-4,,,inhibition,96%
Nc1nc2c(ncn2COC(CO)CO)c(=O)[nH]1,Guinea pig cytomegalovirus,,,plaque count,GPE,,,EC50,61 µM
CN1C(=O)[C@@H](Cc2ccccc2)NC1=S,HIV-2,,0.1 µg/mL,cytopathic effect / XTT,MT-4,,,inhibition,34%
O=c1[nH]cnc2c1ncn2OCCOCP(=O)(O)O,Maedi-visna virus,,,,,,K184,MIC,100 µM
Nc1nc2c(ncn2COC(CO)CO)c(=O)[nH]1,Guinea pig cytomegalovirus,,,plaque count,GPE,,,EC50,81.68 µM
O=c1cnn(COCCO)c(=O)[nH]1,Duck hepatitis B virus,,10 µg/mL,,Primary duck hepatocytes,,,inhibition,35%
N#Cc1cnn(CCCc2ccccc2)c1/N=c1\ssnc1Cl,Saccharomyces cerevisiae,,,,,,ATCC26785,MIC,25 µg/mL
COc1cc(/C=C/C(C)=O)ccc1O,Aspergillus ochraceus,,,broth dilution,,,MTCC 4643,MFC,963 µM
CCC(CC)O[C@@H]1C=C(C(=O)O)C[C@H](N)[C@H]1NC(C)=O,Influenza A virus,,,plaque count,MDCK,,H1N1 isolate C9C,EC50,0.3 µg/mL
N#Cc1cnn(-c2ccccc2)c1/N=c1\ssnc1Cl,Saccharomyces cerevisiae,,,,,,ATCC26785,MIC,25 µg/mL
Nc1nc2c(ncn2COC(COP(=O)(O)O)COP(=O)(O)O)c(=O)[nH]1,Mouse cytomegalovirus,,,plaque count,MRC-5,,SMITH,EC50,28.1 µM
Nc1nc(N)c2ncn(OCC(CO)OCP(=O)(O)O)c2n1,Maedi-visna virus,,,,,,K184,MIC,0.06 µM
CC[C@H]1OC(=O)[C@H](C)C(=O)[C@H](C)[C@@H](O[C@@H]2O[C@H](C)C[C@H](N(C)C)[C@H]2O)[C@](C)(OC)C[C@@H](C)C(=O)[C@H](C)[C@H]2N(CCCCn3cnc(-c4cccnc4)c3)C(=O)O[C@]12C,Haemophilus influenzae,,,,,,25 strains,MIC50,0.125 µg/mL
Nc1nc2c(ncn2OCCOCP(=O)(O)O)c(=O)[nH]1,Maedi-visna virus,,,,,,K184,MIC,0.007 µM
Nc1ncnc2c1ncn2[C@@H]1C[C@H](N)[C@@H](O)[C@H]1O,Measles virus,,,virus yield,CV-1,,,EC50,0.1 µg/mL
NCCCC[C@H](NC(=O)[C@H](Cc1c[nH]c2ccccc12)NC(=O)[C@H](CCCCN)NC(=O)[C@@H](N)CCCCN)C(=O)O,Cryptococcus neoformans,,100 µM,,,,ATCC 32264,inhibition,0%
CC[C@H]1OC(=O)[C@@](C)(F)C(=O)[C@H](C)[C@@H](O[C@@H]2O[C@H](C)C[C@H](N(C)C)[C@H]2O)[C@@]2(C)C[C@@H](C)C(=N)[C@H](C)[C@@H](OC/C(=N\OCc3ccc(-c4nccs4)nc3)CO2)[C@]1(C)O,Streptococcus pneumoniae,,,,,,7701 (erythromycin A-resistant),MIC,0.25 µg/mL
Nc1nc2c(ncn2OCC2COP(=O)(O)CO2)c(=O)[nH]1,Maedi-visna virus,,,,,,K184,MIC,0.009 µM
Nc1nc(=O)n2ccn([C@H]3C[C@H](O)[C@@H](CO)O3)c2n1,Dengue virus,,,,,,TYPE 2,EC50,>100 µM
C=CCc1ccc(O)c(OC)c1,Candida tropicalis,,,turbidity,,,2467,MIC90,490 µg/mL
OO,Aspergillus terreus,,,agar,,,UAB680,MIC99,2000 µM
CCCCCCCCCCCC[N+](C)(C)CSCCCC,Staphylococcus aureus,,,,,,ATCC 6538,MBC,14.2 µM
Cn1cc(C(=O)NCc2ccc(Cl)cc2)c(=O)c2cc(CN3CCOCC3)ccc21,Varicella zoster virus,,4.1 µM,plaque count,HFF,,DY varicella isolate,inhibition,90%
C[C@@]1(O)[C@H](O)[C@@H](CO)O[C@H]1n1ccn2c(=O)nc(N)nc12,West Nile virus,,,,,,,EC50,>100 µM
O=C(N[C@@H](C(=O)N1CCC[C@H]1c1ncc(-c2ccc(-c3ccc(-c4cnc([C@@H]5CCCN5C(=O)[C@H](NC(=O)C5CC5)c5ccccc5)s4)cc3)cc2)s1)c1ccccc1)C1CC1,Hepatitis C virus,P58T,,luciferase / reporter gene,Huh7.5,,genotype 1b,fold resistance,162
CC[C@H]1OC(=O)[C@@](C)(F)C(=O)[C@H](C)[C@@H](O[C@@H]2O[C@H](C)C[C@H](N(C)C)[C@H]2O)[C@@]2(C)C[C@@H](C)C(=O)[C@H](C)[C@@H](OC/C(=N\OCc3ccc(-n4cccn4)nc3)CO2)[C@]1(C)O,Streptococcus pneumoniae,,,,,,7701 (erythromycin A-resistant),MIC,0.13 µg/mL
Nc1nc(=O)n2ccn([C@@H]3C[C@@H](O)[C@H](CO)O3)c2n1,West Nile virus,,,,,,,EC50,>100 µM
N=C(N)c1ncn([C@@H]2O[C@H](CO)[C@@H](O)[C@H]2O)n1,Punta Toro virus,,,,LLC-MK2,,Adames,EC50,8 µg/mL
O=c1cnn([C@@H]2O[C@H](CO)[C@@H](O)[C@H]2O)c(=O)[nH]1,Dengue virus,,,plaque count,LLC-MK2,,Caribbean (type 4),EC50,<1 µg/mL
CN(C)c1ncnc2c1ncn2Cc1cccc(NC(=O)C(N)Cc2ccccc2)c1,Coronavirus,,,plaque count,M-HELA,,,EC50,50 µM
Oc1ccccc1N=Cc1ccc(F)cc1,Cryptococcus gattii,,,,,,23/10993,MIC99,5.7 µg/mL
Cc1c(-c2ccc(C(=N)N)cc2)oc(-c2ccc(C(=N)N)cc2)c1C,Bovine viral diarrhea virus,,5 µM,,MDBK,,,inhibition,69%
CCO/C(=N/NC(=O)OC(C)(C)C)C(C)(O)c1ccc2ccccc2c1,Plasmodium falciparum,,5 µM,hypoxanthine uptake / radiometric,,,3D7,inhibition,56%
c1cc(-c2ccc(-c3nc4ccc(C5=NCCN5)cc4[nH]3)o2)ccc1C1=NCCN1,Bovine viral diarrhea virus,,25 µM,,MDBK,,,inhibition,0%
CCOC(=O)c1cc(C#N)c2[nH]c3ccccc3n2c1=O,Respiratory syncytial virus,,,plaque count,HEP-2,,LONG,EC50,10 µg/mL
CO/N=C1\CN(c2nc3c(cc2F)c(=O)c(C(=O)O)cn3C2CC2)CC1CN,Streptococcus pneumoniae,,,,,,37 isolates erythromycin-resistant,MIC50,0.031 µg/mL
O=C(NCCc1ccccc1)Nc1nc2ccc(F)cc2s1,HIV-2,,10 µg/mL,RT activity,MT-4,,,inhibition,62%
CO/N=C1\CN(c2nc3c(cc2F)c(=O)c(C(=O)O)cn3C2CC2)CC1CN,Streptococcus pneumoniae,,,,,,28 strains (ciprofloxacin-resistant),MIC50,0.25 µg/mL
Oc1ccccc1N=Cc1cccc(O)c1O,Cryptococcus neoformans,,,,,,ATCC 28957,MIC99,4 µg/mL
Nc1ncnc2c1ncn2[C@@H]1CC[C@@H](O)[C@H]1O,Measles virus,,,cytopathic effect,CV-1,,,EC50,<0.1 µg/mL
N#Cc1ncn(CCc2ccccc2)c1/N=c1\ssnc1Cl,Saccharomyces cerevisiae,,,,,,ATCC26785,MIC,25 µg/mL
CCCCN1C(=O)[C@@H](Cc2ccccc2)NC1=S,HIV-2,,100 µg/mL,cytopathic effect / XTT,MT-4,,,inhibition,100%
CCCCCCCCCCCC[N+](C)(C)COCC(C)C,Staphylococcus aureus,,,,,,ATCC 6538,MBC,14.9 µM
N#Cc1cc(C#N)c2[nH]c3ccccc3n2c1=O,Mumps virus,,,plaque count,VERO,,ECXH-3-11,EC50,8.5 µg/mL
Cc1nc(NC(=O)NCCc2ccccc2)sc1C,HIV-2,,1 µg/mL,cytopathic effect / XTT,MT-4,,,inhibition,100%
CCOC(=O)c1c(C)nc(NCCCCNc2ccnc3cc(Cl)ccc23)nc1-c1ccccc1,Cryptococcus neoformans,,,,,,96806,MIC99,45.3 µg/mL
CC[C@H]1OC(=O)[C@@](C)(F)C(=O)[C@H](C)[C@@H](O[C@@H]2O[C@H](C)C[C@H](N(C)C)[C@H]2O)[C@@]2(C)C[C@@H](C)C(=NC(C)=O)[C@H](C)[C@@H](OC/C(=N\OCc3ccc4cnn(C(N)=O)c4c3)CO2)[C@]1(C)O,Streptococcus pneumoniae,,,,,,7701 (erythromycin A-resistant),MIC,0.13 µg/mL
O=[N+]([O-])c1ccc(C=Nc2ccccc2O)cc1,Cryptococcus neoformans,,,,,,27JF,MIC99,32 µg/mL
CC[C@H]1OC(=O)[C@H](C)[C@@H](O[C@H]2C[C@@](C)(OC)[C@@H](O)[C@H](C)O2)[C@H](C)[C@@H](O[C@@H]2O[C@H](C)C[C@H](N(C)C)[C@H]2O)[C@](C)(O)C[C@@H](C)CN(C)[C@H](C)[C@@H](O)[C@]1(C)O,Toxoplasma gondii,,37.48 µg/mL,,,20 h,RH,inhibition,90%
CC[C@H]1OC(=O)[C@H](C)C(=O)[C@H](C)[C@@H](O[C@@H]2O[C@H](C)C[C@H](N(C)C)[C@H]2O)[C@@]2(C)C[C@@H](C)C(=NC(C)=O)[C@H](C)[C@@H](OC/C(=N\OCc3ccc(-c4cccc(N)n4)s3)CO2)[C@]1(C)O,Streptococcus pneumoniae,,,,,,49619 (erythromycin A-susceptible),MIC,<0.06 µg/mL
CC(C)CC(NC(=O)Oc1ccccc1)C(=O)Nc1cccc(Cn2cnc3c(N(C)C)ncnc32)c1,Coronavirus,,,plaque count,M-HELA,,,EC50,>50 µM

ECn is the concentration giving n% inhibition of infection, replication or growth. Rows are shuffled and stem from different studies. Inhibition is in % at the dose shown (toxicity tests: loss of growth or viability). MIC50, MIC90 and the like: level of inhibition, or share of isolates inhibited. Fold resistance has wild type as its base.